According to patent US12583820B2, “Broad spectrum antivirals against coronavirus” (priority 2020, dated 2026):

Target: 3CLpro of SARS-CoV-2 (Severe acute respiratory syndrome coronavirus 2, UniProt P0DTD1)

Row | Substance | IC50 [nM]
1 | Sodium (2S)-2-((S)-2-((((4,4-difluorocyclohexyl) methoxy-d2) carbonyl) amino)-4-methylpentanamido)-1-hydroxy-3-(2-oxopyrrolidin-3-yl) propane-1-sulfonate [Compound 11c] | 300
2 | Sodium (2S)-1-hydroxy-2-((S)-4-methyl-2-(((((1s,4S)-4-propylcyclohexyl)oxy)carbonyl) amino)pentanamido)-3-((S)-2-oxopyrrolidin-3-yl)propane-1-sulfonate [Compound 3c] | 200
3 | ((1s,4S)-4-Propylcyclohexyl) methyl-d2 ((2S)-4-methyl-1-oxo-1-(((2S)-1-oxo-3-(2-oxopyrrolidin-3-yl) propan-2-yl) amino) pentan-2-yl) carbamate [Compound 9b] | 410
4 | Sodium (2S)-1-hydroxy-2-((S)-4-methyl-2-(((((1s,4S)-4-propylcyclohexyl) methoxy-d2) carbonyl) amino) pentanamido)-3-(2-oxopyrrolidin-3-yl) propane-1-sulfonate [Compound 9c] | 330
